{
  "source": "paper PMC8231113",
  "about": "“Protein Secondary Structure Affects Glycan Clustering in Native Mass Spectrometry” (Life, 2021)",
  "system": "superfolder green fluorescent protein (GFP)",
  "assay": "Native MS glycan clustering to reference protein GFP",
  "type": "binding",
  "conditions": "on GFP",
  "data": [
    {"smiles": "CC(=O)N[C@H]1[C@@H](O[C@H]2[C@@H](O)[C@@H](CO)O[C@@H](O[C@H]3[C@H](O)[C@@H](CO)OC(O)[C@@H]3NC(C)=O)[C@@H]2O[C@@H]2O[C@@H](C)[C@@H](O)[C@@H](O)[C@@H]2O)O[C@H](CO)[C@H](O)[C@@H]1O", "note": "(stereo partly drawn) [HBGA A, GalNAcα1-3(Fucα-2)Galβ1-3GlcNAc]", "values": [
      {"measurement": "Glycan-Clustering Ratio R", "setting": "100 µM glycan", "result": "0.30±0.02"},
      {"measurement": "Glycan-Clustering Ratio R", "setting": "200 µM glycan", "result": "0.35± 0.05"},
      {"measurement": "Glycan-Clustering Ratio R", "setting": "300 µM glycan", "result": "0.54± 0.01"},
      {"measurement": "Glycan-Clustering Ratio R", "setting": "400 µM glycan", "result": "0.68± 0.04"},
      {"measurement": "Glycan-Clustering Ratio R", "setting": "500 µM glycan", "result": "0.86 ± 0.04"}
    ]},
    {"smiles": "CC(=O)N[C@H]1C(O)O[C@H](CO)[C@@H](O)[C@@H]1O[C@@H]1O[C@H](CO)[C@H](O)[C@H](O[C@H]2O[C@H](CO)[C@H](O)[C@H](O)[C@H]2O)[C@H]1O[C@@H]1O[C@@H](C)[C@@H](O)[C@@H](O)[C@@H]1O", "note": "(stereo partly drawn) [HBGA B, Galα1-3(Fucα1-2)Galβ1-3GlcNAc]", "values": [
      {"measurement": "Glycan-Clustering Ratio R", "setting": "100 µM glycan", "result": "0.30±0.02"},
      {"measurement": "Glycan-Clustering Ratio R", "setting": "200 µM glycan", "result": "0.41±0.02"},
      {"measurement": "Glycan-Clustering Ratio R", "setting": "300 µM glycan", "result": "0.44±0.04"},
      {"measurement": "Glycan-Clustering Ratio R", "setting": "400 µM glycan", "result": "0.57±0.01"},
      {"measurement": "Glycan-Clustering Ratio R", "setting": "500 µM glycan", "result": "0.67 ± 0.02"}
    ]},
    {"smiles": "CC(=O)N[C@H]1[C@H](O[C@H]2[C@@H](O)[C@@H](CO)O[C@H](O[C@@H]3[C@H](O)[C@@H](O)[C@H](O[C@H]4[C@H](O)[C@@H](O)C(O)O[C@@H]4CO)O[C@@H]3CO)[C@@H]2O)O[C@H](CO)[C@H](O)[C@@H]1O", "note": "(stereo partly drawn) [Gb4, GalNAc β1-3 Galα1-4Galβ1-4Glc]", "values": [
      {"measurement": "Glycan-Clustering Ratio R", "setting": "100 µM glycan", "result": "0.27±0.02"},
      {"measurement": "Glycan-Clustering Ratio R", "setting": "200 µM glycan", "result": "0.32±0.07"},
      {"measurement": "Glycan-Clustering Ratio R", "setting": "300 µM glycan", "result": "0.53±0.01"},
      {"measurement": "Glycan-Clustering Ratio R", "setting": "400 µM glycan", "result": "0.69±0.04"},
      {"measurement": "Glycan-Clustering Ratio R", "setting": "500 µM glycan", "result": "0.80 ± 0.03"}
    ]}
  ]
}
